Experimental data taken from patent publication US20110059962A1, “TRANSCRIPTION FACTOR MODULATING COMPOUNDS AND METHODS OF USE THEREOF” (priority 2009, published 2011).

Target: T1, ExsA (Pseudomonas aeruginosa) (UniProt P26993)
T1 sequence (looked up, limits assumed): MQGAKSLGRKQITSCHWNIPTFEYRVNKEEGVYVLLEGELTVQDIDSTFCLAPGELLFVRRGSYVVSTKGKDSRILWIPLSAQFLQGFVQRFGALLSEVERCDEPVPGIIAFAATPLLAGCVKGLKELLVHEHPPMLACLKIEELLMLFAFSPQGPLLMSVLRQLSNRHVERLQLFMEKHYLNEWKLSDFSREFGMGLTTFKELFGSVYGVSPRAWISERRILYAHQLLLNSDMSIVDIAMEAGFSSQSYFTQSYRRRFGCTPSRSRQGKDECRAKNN
Assay: binding assay
Conditions: chemiluminescence plate assay, 20 nM protein, 2 nM DNA; binding inhibited by compounds; DNA sequence given only in Example 12; purified recombinant protein; protein details: 6xHis

## CCGATTTAGCAAAACGTCGCATCGGTC (double strand) [biotinylated target dsDNA]
  binding result: binds

The exact form of at least one protein or probe is not confirmed. Protein sequences can lack the tags named with them.
